Fitness effects across NS2B and the NS3 protease domain of Zika virus

Source: Ni et al. 2025 (doi:10.1038/s41467-025-63602-z), supplementary data.

The scanned region of Zika virus MR766 is shown below (positions 1-308): NS2B is 2-131, NS3 begins at position 132.
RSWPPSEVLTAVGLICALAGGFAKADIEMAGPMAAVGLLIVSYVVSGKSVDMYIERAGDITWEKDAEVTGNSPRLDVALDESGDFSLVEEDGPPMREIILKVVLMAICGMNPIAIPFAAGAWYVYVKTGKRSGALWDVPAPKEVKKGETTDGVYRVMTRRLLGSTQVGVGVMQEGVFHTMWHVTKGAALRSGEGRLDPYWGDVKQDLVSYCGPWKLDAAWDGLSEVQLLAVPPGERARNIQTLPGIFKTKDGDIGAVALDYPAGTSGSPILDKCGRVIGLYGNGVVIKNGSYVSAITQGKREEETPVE

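Libraries of single mutants were passaged as virus pools on Huh-7.5 cells. Sequencing of three replicate libraries (two for positions 207-308) was averaged into one effect per change. The study looked for pockets that tolerate few changes, as a guide for inhibitor design.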

Values are log2 effects on growth: 0 is wild type, lower means poorer growth.
Each entry names the wild-type residue, its position and the residue put in its place.
Values above 0 are not proof of better growth: six high scorers were tested one by one, five grew less well than wild type and one about as well.
The authors count -1 or higher as tolerated. Position 1 is the last residue of NS2A.
An asterisk is a stop codon; stop codons read about -7, near the floor of the assay.
The region was split into three libraries (1-103, 104-206, 207-308).

| mutation | effect (log2) |
|---|---|
| I27* | -7.13 |
| T149M | -4.88 |
| A25E | -6.52 |
| G37H | -4.93 |
| H182A | -5.19 |
| A30L | -5.23 |
| V36W | -3.91 |
| G152C | -5.73 |
| V102A | -0.67 |
| L161Q | -5.42 |
| M172F | -2.66 |
| A258H | -4.97 |
| G201C | -5.47 |
| K24T | -3.62 |
| T128K | -0.44 |
| D151E | -1.14 |
| Y125I | -2.90 |
| K145Q | -1.02 |
| N289G | -2.99 |
| G133T | -6.68 |
| Y125R | -7.36 |
| I15T | -0.98 |
| T184C | -5.76 |
| V153F | -1.12 |
| W200K | -6.80 |
| E7G | -2.82 |
| E302P | -1.77 |
| V41I | -0.74 |
| G20L | -7.65 |
| M105W | -5.97 |
| L39F | -3.97 |
| T242C | -5.22 |
| T128S | 0.36 |
| S191Q | -4.47 |
| K204E | -6.40 |
| M33D | -4.42 |
| L196I | -0.16 |
| D253F | -5.79 |
| Q166E | -5.55 |
| I270H | -3.10 |
| Y199D | -4.18 |
| K288I | -5.43 |
| R301N | -4.84 |
| G299R | -5.13 |
| F117R | -7.03 |
| V231S | -5.27 |
| D217C | -5.88 |
| Y53G | -7.05 |
| S86C | -2.56 |
| T61F | -0.67 |
| M110H | -1.48 |
| T297D | -4.49 |
| Y210M | -6.84 |
| G152Q | -5.73 |
| K101C | -6.14 |
| A121D | -4.75 |
| I287N | 0.56 |
| G284A | -6.01 |
| R155K | -5.39 |
| S291R | -5.01 |

Extract of 7 entries:

* S291R = -5.01
* Y125R = -7.36
* I27* = -7.13
* V102A = -0.67
* A30L = -5.23
* E7G = -2.82
* G201C = -5.47